Holding throughout (type): physicochemical
A short description of series [1]: Cholesterol and protein levels in delipidated HIV. As to conditions: for Protein / Chol.: HIV purified on 20% sucrose; for Chol.: Amplex Red assay; for % of Control: HIV, cholesterol relative to control; for Chol./protein: cholesterol to total protein ratio. The method, then: HIV was delipidated and purified on 20% sucrose. Cholesterol was measured with Amplex Red assay, a commercially available bioassay from vendors such as Molecular Probes, Inc., and total protein was measured.

A short description of series [2]: Cholesterol and Gag p27 in delipidated SIV. The method, then: SIV was delipidated and purified on 20% sucrose. Cholesterol was measured with Amplex Red assay and Gag p27 protein measured. Data is expressed as cholesterol to Gag p27 protein ratio. DIPE treated virus had 80% less cholesterol than control, indicating effective delipidation. Similarly, relative to the control, the 1% DIPE sample has a decreased cholesterol to protein ratio. 1% DIPE treatment effectively removed 80% cholesterol while maintaining the structural integrity of the virus measured by the p27 recovery. […] This method was too harsh. […] Referring to FIGS. 5 and 6, FPLC profiles of fractionated SIV-mac251 are shown for Gag p27 and cholesterol.

Series [3] can be described thus: Isopycnic density gradient of delipidated SIV-mac 251. The protocol:
Virus density profiles were evaluated by subjecting them to isopycnic gradient centrifugation. Briefly, 1.3 ml each of 20%-60% sucrose in phosphate buffered saline (PBS) was overplayed, with 8% increments in sucrose concentrations. Six sucrose concentrations were layered, from 60% sucrose at the bottom, to 20% sucrose at the top. Virus samples (prepared after pelleting through a 20% sucrose cushion) in 750 μl PBS were carefully over-layed on top of the 20% sucrose. All tubes were spun in an 80Ti rotor for the Beckman L8 Ultracentrifuge at 40,000 rpm, and at 4° C. for 16 h. Starting from the top, 17 fractions of 525 μl per tube were collected. Virus concentrations were analyzed using a commercial SIV Gag p27 ELISA kit (Coulter, Calif.).
In FIG. 3, an isopycnic gradient analysis of delipidated HIV, indicated by a graphing of percent of total recovered p24 protein against fraction number, is shown. A substantial amount of the total recovered p24 protein for the samples subjected to delipidation processes is found at higher densities. […] That density shift is further shown in FIG. 4 where the isopycnic density of SIV-mac 251, indicated by a graphic of gag p27 concentration against fraction number, is depicted.

Series [4] can be described thus: Isopycnic sucrose gradient and Western blot of delipidated HIV-1.

With 1% Butanol, in series [1], the Protein came to 82.08 µg/mL, the Chol. came out at 5.52 µg/mL, the “% of Control” value amounted to 45.90% and the Chol./protein stood at 0.06. The “outcome of delipidation treatment of SIV” value in series [2] was “not effective at delipidating the virus”. Besides, the “isopycnic density relative to control (gag p27 against fraction number)” value in series [3] was “shift in density”. Also, in series [4], the “Western blot (gp120, p24) of sucrose density fractions, density of viral particles” value is listed as “shift of immunoreactive bands to higher density fractions”.
Consider 2% Butanol, for which, in series [1], the Protein was 80.53 µg/mL, the Chol. was 5.14 µg/mL, the “% of Control” value came to 43.54% and the Chol./protein was found to be 0.06. Also, the “Western blot (gp120, p24) of sucrose density fractions, density of viral particles” value in series [4] is “loss of many proteins, including a decrease in p24 protein and gp120 protein, and an increase in density of the viral particles”.
